A mixed list of measured activities; the numbers were collected in NIAID ChemDB.

Common to all: growth or infection tests; agent: Herpes simplex virus 1; endpoint: EC50

Two numbers with a dash give a range or band. Neighbouring rows are from separate reports. ECn: concentration that inhibits the pathogen or its effect by n%. Blank or dashed fields: not listed here.

| SMILES | strain or isolate | read by | cells | result |
|---|---|---|---|---|
| CC=NC(=N)c1nc(-c2cccc(OC)c2)n(Cc2ccccc2)n1 | KOS | cytopathic effect | E6SM | >10 µg/mL |
| O=c1c2ncn(COC(CO)CO)c2nc2[nH]c(-c3ccccc3)cn12 | VMW1837 (TK-) | cytopathic effect | E6SM | 0.5 µg/mL |
| Fc1ccc(-c2cc3c(-c4ccnc(NC5CCCC5)n4)ccc(NC4CCC4)n3n2)cc1 | SC16 | antigen / hybridisation | VERO 76 | 0.41 µM |
| OCC(O)COCc1c(Cl)nc2cc(Cl)c(Cl)cn12 | KOS | ELISA | BSC-1 | >100 µM |
| c1cc(OCC2CC2)cc(-c2cc3c(-c4ccnc(NC5CCCC5)n4)ccc(NC4CCCC4)n3n2)c1 | SC16 | antigen / hybridisation | VERO 76 | 0.17 µM |
| Nc1nc2c(ncn2COCCO)c(=O)[nH]1 | 11573 PAAR5 (acyclovir-resistant) | cytopathic effect | HFF | 5 µg/mL |
| O=C(NCc1ccc(Cl)cc1)c1cn2c3c(cc(CN4CCOCC4)cc3c1=O)OC(c1cccnc1)C2 | 4E | plaque count | HFF | 8.7 µM |
| CCc1cc(CC)c(CNCc2ccc[nH]2)c(CC)c1 | KOS | cytopathic effect | Human embryonic lung fibroblasts | >20 µM |
| CC1(CO)CCC(Cn2nnc3c(=O)[nH]cnc32)C1(C)C | TK-/B2006 | cytopathic effect | E6SM | >200 µg/mL |
| CC(=O)OC[C@H]1O[C@@H](n2cc(-c3cc(-c4ccc(C(C)(C)C)cc4)no3)c(=O)[nH]c2=O)CC[C@@H]1O | - | - | - | >0.06 µg/mL |
| CC[C@@H](C(C)C)[C@@H](O)[C@H](O)[C@@H](C)[C@H]1CC[C@H]2[C@@H]3CC(=O)[C@H]4C[C@@H](Br)CC[C@]4(C)[C@H]3CC[C@]12C | F | plaque count | VERO | 53.3 µM |
| NC1=NC2C(C=CN2CC(CO)CCO)C(=O)N1 | F | plaque count | VERO | 0.08 µM |
| Nc1ncnc2c1ncn2C[C@@H](CO)OCP(=O)(O)O | F | cytopathic effect | ESM | 0.2 µg/mL |
| CC[C@@H](C(C)C)[C@@H](O)[C@H](O)[C@@H](C)[C@H]1CC[C@H]2[C@@H]3CC(=O)[C@H]4C[C@H](O)[C@H](O)C[C@]4(C)[C@H]3CC[C@]12C | F | plaque count | VERO | 41.3 µM |
| Nc1ccn(CC[C@H](O)CCO)c(=O)n1 | F | cytopathic effect | E6SM | >400 µg/mL |
| Brc1cccc(-c2cc3c(-c4ccnc(NC5CCCC5)n4)ccc(NC4CCCC4)n3n2)c1 | SC16 | antigen / hybridisation | VERO 76 | 0.31 µM |
| CC(C)(C)NC1=[N+]=CCc2c(-c3ccnc(NC4CCCC4)n3)c(-c3ccc(F)cc3)nn21 | - | hybridisation | - | 7 µM |
| CC1(CO)CCC(Cn2nnc3c(Cl)ncnc32)C1(C)C | TK-/B2006 | cytopathic effect | E6SM | 40 µg/mL |
| CC(Sc1ncnc2c1cnn2CCCCO)C(N)=O | B2006 (TK-) | cytopathic effect | E6SM | >400 µg/mL |
| c1ccc(-c2ccc(-c3cc4c(-c5ccnc(NC6CCC6)n5)ccc(NC5CCC5)n4n3)cc2)cc1 | SC16 | antigen / hybridisation | VERO 76 | 2.79 µM |
| CC(C)C[C@H](N)C(=O)OCCOCn1cnc2c(=O)[nH]c(N)nc21 | SC16 | - | VERO | 1.25 µM |
| CCc1c(CN[C@H]2CCCC[C@@H]2NCc2ccc[nH]2)c(CC)c(CN[C@H]2CCCC[C@@H]2NCc2ccc[nH]2)c(CC)c1CN[C@H]1CCCC[C@@H]1NCc1ccc[nH]1 | KOS | cytopathic effect | Human embryonic lung fibroblasts | >0.8 µM |
| CC1(CO)CCC(Cc2nc3ncnc(N)c3[nH]2)C1(C)C | TK-/B2006 | cytopathic effect | E6SM | >200 µg/mL |
| Nc1ccn([C@@H]2CC[C@H](CO)O2)c(=S)n1 | - | - | - | >100 µM |
| Fc1ccc(-c2nn3c(NC4CCCC4)ncnc3c2-c2ccnc(Nc3nc4ccccc4s3)n2)cc1 | - | hybridisation | - | >40 µM |
| C=C(N=CC)c1nc(-c2ccc(C)cc2)n([C@@H]2O[C@H](CO)[C@@H](O)[C@H]2O)n1 | VMW 1837 | cytopathic effect | E6SM | >40 µg/mL |
| CO[C@H](CO)[C@@H](O)CCn1cnc2c(N)ncnc21 | KOS | cytopathic effect | E6SM | >400 µg/mL |
| C=C(N=CC)c1nc(-c2ccc(OC)cc2)n([C@@H]2O[C@H](CO)[C@@H](O)[C@H]2O)n1 | VMW 1837 | cytopathic effect | E6SM | >400 µg/mL |
| O=c1[nH]c(=O)n([C@H]2C[C@H](O)[C@@H](CO)O2)cc1I | McIntyre | cytopathic effect | PRK | 0.1 µg/mL |
| CC=NC(=N)c1nc(-c2cccc(C)c2)n(Cc2ccccc2)n1 | KOS | cytopathic effect | E6SM | >4 µg/mL |
| CCc1c(CN[C@@H]2CCCC[C@H]2NCc2ccc[nH]2)c(CC)c(CN[C@@H]2CCCC[C@H]2NCc2ccc[nH]2)c(CC)c1CN[C@@H]1CCCC[C@H]1NCc1ccc[nH]1 | TK- KOS ACVr | cytopathic effect | Human embryonic lung fibroblasts | >0.16 µM |
| Clc1ccc(-c2cc3c(-c4ccnc(NC5CCCC5)n4)ccc(NC4CCCC4)n3n2)cc1 | SC16 | antigen / hybridisation | VERO 76 | 0.86 µM |
| Cc1ccc2c(c1)C(=O)C(=O)N2 | - | virus yield | VERO | >50 µM |
| O=c1[nH]c(=O)n([C@H]2C[C@H](O)[C@@H](COP(=O)(O)O)O2)cc1/C=C/c1ccccc1 | KOS | cytopathic effect | PRK | 40 µg/mL |
| Cc1cn(CC[C@H](O)CCO)c(=O)[nH]c1=O | B2006 (TK-) | cytopathic effect | E6SM | >400 µg/mL |
| NC(=O)CSc1ncnc2c1cnn2COCCO | KOS | cytopathic effect | E6SM | >400 µg/mL |
| Nc1nc2c(ncn2CCC(O)CO)c(=O)[nH]1 | KJ502 | plaque count | VERO | 11 µM |
| CCCCCCCCCCCCCCCCOCCCOP(=O)(O)OCC(CO)OCn1cnc2c(=O)[nH]c(N)nc21 | - | plaque count | MRC-5 | 1.1 µM |
| Nc1nc2c(ncn2COCCO)c(=O)[nH]1 | Tomioka | plaque count | BALB/3T3 | 0.032 µg/mL |
| CC[C@@H](NC(=O)[C@@H](CC(=O)[C@@H](CC(=O)[C@@H](NC(=O)[C@H](C(C)C)N(C)C(=O)[C@H](C)CC1CCCCC1)C(C)(C)C)CC(=O)C(C)(C)C)C1(C(=O)O)CCCC1)C(C)(C)C | PAA-R 5 | ELISA | BHK-21/C13 | 0.14 µM |
| O=C1Nc2ccc(Cl)cc2C1=O | - | virus yield | VERO | >50 µM |
| NCCCCC(N)C(=O)OCCOCn1cnc2c(=O)[nH]c(N)nc21 | SC16 | - | VERO | 1.42 µM |
| Nc1ncnc2c1ncn2C[C@H](O)CO | 5 (PAA-resistant) | cytopathic effect | PRK | >400 µg/mL |
| OCCSCc1c(Cl)nc2cc(Cl)c(Cl)cn12 | KOS | ELISA | BSC-1 | 60 µM |
| CCC(Sc1ncnc2c1cnn2COCC(O)CO)C(N)=O | KOS | cytopathic effect | E6SM | >400 µg/mL |
| C/C=C\c1nc2c(N)ncnc2n1[C@H]1C[C@H](O)[C@@H](CO)O1 | G | cytopathic effect | ESM | >100 µg/mL |
| C[C@H](CCCC(C)(C)C)C1CCC2C3C[C@H](COS(=O)(=O)O)C4C[C@H](OS(=O)(=O)O)[C@@H](OS(=O)(=O)O)C[C@]4(C)C3CC[C@@]21C.[Na+].[Na+].[Na+] | KOS | plaque count | VERO | 6.09 µg/mL |
| NCC(=O)OCCOCn1cnc2c(=O)[nH]c(N)nc21 | SC16 | - | VERO | 1.7 µM |
| COCc1cn([C@H]2C[C@H](O)[C@@H](CO)O2)c(=O)nc1N | 76 | plaque count | VERO | 26 µM |
| O=C1Nc2ccccc2C1=O | - | virus yield | VERO | >50 µM |
| Cn1cc(C(=O)NCc2ccc(Cl)cc2)c(=O)c2cc(CN3CCOCC3)ccc21 | B-2006 (acyclovir-resistant) | plaque count | HFF | 4.2 µM |
| Nc1ncnc2c1ncn2CC[C@H](O)CCO | KOS | cytopathic effect | E6SM | >400 µg/mL |
| CC(C)[C@H](N)C(=O)OCCOCn1cnc2c(=O)[nH]c(N)nc21 | SC16 | - | VERO | 0.84 µM |
| CC=NC(=N)c1nc(-c2ccc(C)cc2)n(COCCO)n1 | KOS | cytopathic effect | E6SM | >40 µg/mL |
| Nc1nc2c(ncn2COC(CO)CO)c(=O)[nH]1 | KOS | hybridisation | WI-38 | <0.004 µM |
| CCCCCCCCCCCCCCCCOCCCOP(=O)(O)OCC(CO)CCn1cnc2c(=O)[nH]c(N)nc21 | - | plaque count | MRC-5 | >145 µM |
| CCCCCCCc1nc2c(N)ncnc2n1[C@H]1C[C@H](O)[C@@H](CO)O1 | G | cytopathic effect | ESM | >40 µg/mL |
| Nc1nc2c(ncn2COC(CO)CO)c(=O)[nH]1 | KOS | ELISA | BSC-1 | 3.5 µM |
| CCCCNc1nccc(-c2c(-c3ccc(F)cc3)nn3c(NC4CCCC4)ncnc23)n1 | - | hybridisation | - | 1 µM |
| C=C(N=CC)c1nc(-c2cccc(C)c2)n(C2O[C@H](CO)[C@@H](O)[C@H](O)[C@H]2O)n1 | KOS | cytopathic effect | E6SM | 300 µg/mL |
| C[C@@H](N)C(=O)OCCOCn1cnc2c(=O)[nH]c(N)nc21 | SC16 | - | VERO | 1.2 µM |
| NC(=O)CSc1ncnc2c1cnn2COCC(O)CO | B2006 (TK-) | cytopathic effect | E6SM | >400 µg/mL |
| FC(F)(F)c1cccc(-c2cc3c(-c4ccnc(NC5CCCC5)n4)ccc(NC4CCCC4)n3n2)c1 | SC16 | antigen / hybridisation | VERO 76 | 0.27 µM |
| Nc1nc2c(ncn2[C@@H]2C[C@H](CO)[C@H]2CO)c(=O)[nH]1 | Schooler | plaque count | WI-38 | 0.08–0.2 µM |
| OCCSCc1c(Cl)nc2ccc(Cl)cn12 | KOS | ELISA | BSC-1 | >100 µM |
| Nc1nc2c(ncn2COC(CO)CO)c(=O)[nH]1 | 119681 | PCR | - | 0.4 µM |
| O=c1[nH]c(=O)n([C@H]2C[C@H](O)[C@@H](CO)O2)cc1I | P-ACG-R | plaque count | HFF | 4.4 µg/mL |
| COc1cccc(-c2cc3c(-c4ccnc(NC5CCCC5)n4)ccc(NC4CCCC4)n3n2)c1 | SC16 | antigen / hybridisation | VERO 76 | 0.2 µM |
| CCc1c(CNCc2ccc[nH]2)c(CC)c(CNCc2ccc[nH]2)c(CC)c1CNCc1ccc[nH]1 | TK- KOS ACVr | cytopathic effect | Human embryonic lung fibroblasts | >0.8 µM |
| Nc1ccn([C@H]2CC[C@H](CO)O2)c(=S)n1 | - | - | - | >100 µM |
| Nc1nc2c(ncn2COCCO)c(=O)[nH]1 | 5 (PAA-resistant) | cytopathic effect | PRK | 2 µg/mL |
| O=C(NCc1ccc(Cl)cc1)c1c[nH]c2ccc(CCCO)cc2c1=O | Patton | plaque count | - | 20 µM |
| CCCCCC#Cc1nc2c(N)ncnc2n1[C@H]1C[C@H](O)[C@@H](CO)O1 | B2006 (TK-) | cytopathic effect | ESM | >100 µg/mL |
| Nc1cccc(-c2cc3c(-c4ccnc(NC5CCCC5)n4)ccc(NC4CCCC4)n3n2)c1 | SC16 | antigen / hybridisation | VERO 76 | 0.64 µM |
| CC=NC(=N)c1nc(-c2ccc(C)cc2)n(C/C=C/c2ccccc2)n1 | KOS | cytopathic effect | E6SM | >4 µg/mL |
| CC[C@H](/C=C/[C@@H](C)[C@H]1CC[C@H]2[C@@H]3CC=C4C[C@@H](O)CC[C@]4(C)[C@H]3CC[C@]12C)C(C)C | F | plaque count | VERO | 48.8 µM |
| C#Cc1nc2c(N)ncnc2n1[C@H]1C[C@H](O)[C@@H](CO)O1 | B2006 (TK-) | cytopathic effect | ESM | >4 µg/mL |
| CC=NC(=N)c1nc(-c2ccc(OC)cc2)n(C/C=C/c2ccccc2)n1 | KOS | cytopathic effect | E6SM | >10 µg/mL |
| O=C1Nc2ccc(F)cc2C1=O | - | virus yield | VERO | <50 µM |

5 of the rows above, restated:

SMILES | strain or isolate | read by | cells | result
NCC(=O)OCCOCn1cnc2c(=O)[nH]c(N)nc21 | SC16 | - | VERO | 1.7 µM
COCc1cn([C@H]2C[C@H](O)[C@@H](CO)O2)c(=O)nc1N | 76 | plaque count | VERO | 26 µM
O=C1Nc2ccccc2C1=O | - | virus yield | VERO | >50 µM
O=C(NCc1ccc(Cl)cc1)c1c[nH]c2ccc(CCCO)cc2c1=O | Patton | plaque count | - | 20 µM
CC(C)[C@H](N)C(=O)OCCOCn1cnc2c(=O)[nH]c(N)nc21 | SC16 | - | VERO | 0.84 µM